Sequences and labels used below:
B1: M81F (VHH)
VHH: QVQLQQSGGGLVQAGDPLTLSCAASGRTVENYAMGWFRQTPGKEPEFVAAISWWSGSRADYSDSVKGRFTISRDNAKKTLYLQMSSLQPEDTGVYYCAAEPGTYFAGRFESEYDYWGQGTLVTVSS
B2: M208F (VHH)
VHH: QVQLQESGGGLVQAGGSLRLSCAASGRTFSSYAMGWFRQAPGKEREFVARINWSGGSTYYADSVKGRFTISRDNAKNTVYLQMNSLKPEDTAVYYCTAGFALPPSDYWGQGTRVTVSS
B3: M915F (VHH)
VHH: QVQLQESGGGLVQAGGSLRLSCAASGRTFSSYAMGWFRQAPGKEREFVARINWSGGSTYYADSVKGRFTISRDNAKNTVYLQMNSLKPEDTAVYFCTAGFALPPSDYWGQGTQVTVSS
B4: M918F (VHH)
VHH: QVQLQESGGGLVQAGGSLRLSCAASGRTFSSYAMGWFRQAPGSEREFVARISWSGGSTYYADSVKGRFTISRDNAKKTVYLQMNSLKPEDTAVYYCTAGFAYPPSDYWGQGTQVTVSS
B5: M170F (VHH)
VHH: QVQLQESGGGLVQAGGSLRLSCAASGRTFSSYAMGWFRQAPGSEREFVARISWSGGSTYYADSVKGRFTISRDNAKNTVYLQMNSLKPEDTAVYYCTAGFALPPSDYWGQGTQVTVSS
B6: M210F (VHH)
VHH: QVQLQESGGGLVQAGDALTLSCAASGRSVDNYAMGWFRQAPGKELEFVAAISWWSGSRTEYADSVKGRFTISRDNANGMVYLRMSSLRPEDTAVYYCAAERGTYFAGRSQDEYDDWGRGTQVTVSS

The experiment has as its target T1, FMDV strain O1/BFS 1860/UK/67 146S particles (untreated antigen) (Foot-and-mouth disease virus serotype …, UniProt P03305, strain).
T1 construct: copies: 60 + 60 + 60 + 60
The experiment can be described thus: ELISA. The following applies: one partner purified. On the technique in general: An ELISA detects its analyte on a solid surface through an enzyme-linked reagent.
As to B1, the binding result is recorded as “binds”. B2: the binding result is “binds”. For B3, the binding result is reported as “binds”. B4: the binding result is reported as “binds”. Regarding B5, the binding result is “binds”.

B6: the binding result was “binds”.

For the origin of these results see publication PMC12116120, “Single-Domain Antibodies That Specifically Recognize Intact Capsids of Multiple Foot-and-Mouth Disease Serotype O Strains” (Vaccines, 2025).
